The test deals with Plasmodium falciparum. The experiment in a line: ST_JUDE: Plasmodium falciparum 3D7 EC50 (uM) as measured by SYBR green dye. It is filed as functional, organism-based.

Each structure is given as a SMILES string. pEC50: −log10 of the molar value.

Take `Nc1nc(N)c([N+](=O)[O-])nc1[N+](=O)[O-]`: the pEC50 (as a rule, the negative decadic logarithm of the EC50, by convention in mol/L) is less than 4.82.

(Values after ChEMBL document CHEMBL1154198, “Chemical genetics of Plasmodium falciparum” (Nature, 2010).)
